Assay results: US20060280723A1 (priority 2003, published 2006)

How the values were obtained:
SARS-HCoV 2003VA2774 = format: cell-based, SARS human coronavirus (SARS-HCoV)
[1] = system: SARS-HCoV, strain Frankfurt-1

Molecule	OD values (baseline levels in the cytotoxicity assay) (Vero E6 cells)	Tendency to increase baseline levels in the cytotoxicity assay (Vero E6 cells)	Concentration up to which cells were not fully protected from SARS-HCoV infection (SARS-HCoV 2003VA2774) [IU/ml]	Inhibition of cytopathic effect (SARS-HCoV 2003VA2774)	IC50 Exp. Type 1, 10 TCID50 [1] [IU/ml]	IC50 Exp. Type 1, 100 TCID50 [1] [IU/ml]	IL50 Exp. Type 2, 10 TCID50 [1] [IU/ml]	IL50 Exp. Type 2, 100 TCID50 [1] [IU/ml]
Roferon: recombinant alpha IFN product (IFN-alpha 2a) from Roche	≤ 0.6	showed a tendency to increase baseline levels	> 500000	did not show significant inhibition	>3.125	>3.125	>3.125	>3.125
interferon β1a: interferon beta (IFNβ) subtype β1a (protein, UniProt P01574 22-187, looked up) Interferon beta: MSYNLLGFLQRSSNFQCQKLLWQLNGRLEYCLKDRMNFDIPEEIKQLQQFQKEDAALTIYEMLQNIFAIFRQDSSSTGWNETIVENLLANVYHQINHLKTVLEEKLEKEDFTRGKLMSSLHLKRYYGRILHYLKAKEYSHCAWTIVRVEILRNFYFINRLTGYLRN	–	–	–	did not show significant inhibition	–	–	–	–
